Laboratory results from patent US11566018B2, “Treatment of infectious disease” (The Governors of the University of Alberta, priority 2018, dated 2023).

Tested on: RSV-A2-GFP
Experiment: Dose response experiments, progeny virus titered on HeLa cells
Type: cell-based, human RSV strain A2
Details: ratio of EC50 (viral replication) and CC50 (cell viability)
Procedure: Dose response experiments. 1HAEo-cells were infected as described, progeny virus collected, and tittered on HeLa cells in duplicate as described in SAR 2. During initial infection in 1HAEo-cells infectious media was replaced with media containing compounds at indicated concentrations at 2 hours post infection. Proportion of virus infected cells were quantified via indirect immunofluorescence assay.
To further assess the therapeutic potential of compounds identified in SAR 1 and SAR 2, a therapeutic index (TI) of each compound was identified (e.g., ratio of […]). […] Overall, the TI was increased from 4.1 for compound 5a to 12.3 with compound 5f.

Row | Structure (SMILES) | therapeutic index (TI)
1 | COC(=O)C1(c2c(-c3ccccc3)[nH]c3ccccc23)Nc2cc(Cl)ccc2C1=O (centres unmarked) [Compound 5a] | 4.1
2 | COC(=O)C1(c2c(-c3ccc(OC)cc3)[nH]c3ccccc23)Nc2cc(Br)ccc2C1=O (centres unmarked) [Compound 5f] | 12.3
